Results: ChEMBL document CHEMBL1287766, “Discovery of N-benzyl-N'-(4-pipyridinyl)urea CCR5 antagonists as anti-HIV-1 agents (II): modification of the acyl portion” (Bioorg Med Chem Lett, 2010)
This is a selection: effects in other tests are not listed, and their absence says nothing.

How the values were obtained:
[1] = system: Human immunodeficiency virus 1; test: Antiviral activity against HIV1 BaL in human PBL cells; type: functional, organism-based; conditions: strain BaL
[2] = system: Human immunodeficiency virus 1; test: Antiviral activity against HIV1 BaL in human HOS cells; type: functional, organism-based; conditions: strain BaL

| SMILES | IC50 [1] [nM] | IC50 [2] [nM] |
| --- | --- | --- |
| N#Cc1ccc(CNC(=O)N(c2cccc(F)c2)C2CCN(CCC3(c4cccc(F)c4)CCN(C(=O)c4ccc(C#N)cc4)CC3)CC2)cc1 | 26 | 13 |
| CC(C)(O)C(=O)N1CCC(CCN2CCC(N(C(=O)NCc3ccc(C#N)cc3)c3cccc(F)c3)CC2)(c2cccc(F)c2)CC1 | 8.1 | 8 |
| N#Cc1ccc(CNC(=O)N(c2cccc(F)c2)C2CCN(CCC3(c4cccc(F)c4)CCN(C(=O)c4c(F)cccc4F)CC3)CC2)cc1 | 6.5 | 1.9 |
| N#Cc1ccc(CNC(=O)N(c2cccc(F)c2)C2CCN(CCC3(c4cccc(F)c4)CCN(C(=O)c4ccc(F)cc4O)CC3)CC2)cc1 | 32 | 6.6 |
| N#Cc1ccc(CNC(=O)N(c2cccc(F)c2)C2CCN(CCC3(c4cccc(F)c4)CCN(C(=O)c4c(Cl)cccc4Cl)CC3)CC2)cc1 | – | 2.6 |
| N#Cc1ccc(CNC(=O)N(c2cccc(F)c2)C2CCN(CCC3(c4cccc(F)c4)CCN(C(=O)c4cccc(C(N)=O)c4)CC3)CC2)cc1 | – | 3.7 |
